The subject of this data set is C[C@H](O)[C@H](O)[C@H]1CNc2nc(N)[nH]c(=O)c2N1. Kind of data set: purified protein. As to conditions: pH 7.0; 37.0 °C; varied: cofactor.

As a reminder, the Km is the substrate concentration at which the rate is half of its maximum. As to “lpPAH (phenylalanine hydroxylase from Legionella pneumophila; lpPAH-(His)6) (Legionella pneumophila subsp. pneumophila str. Philadelphia 1)”, the Km worked out at 125 ± 25 µM.

The record behind these values is paper PMC3458870 (PLoS ONE, 2012).
